Measurements taken from patent publication US8318804B2 (priority 2007, dated 2012).

System: A/WY/03/2003 (H3N2) influenza virus
Settings: 10 μg/mL; FIG. 16; MDCK cells, 72 h

## ethyl-(2R/S, 1′R,4′S)-2-(4′-hydroxy-2′-cyclopenten-1′-yl)-2-nitroacetate
  protection from the selected influenza strain (cell viability assay): 75%
